For 1 substance, discontinuations results are on record in patent US20130023496A1, “Combination Therapy Comprising A CCR5 Antagonist, A HIV-1 Protease Inhibtior and a Pharmacokinetic Enhancer” (priority 2010, published 2013).

This data set relates to CCR5-tropic HIV. Nature of the data set: Randomized controlled study of atazanavir/ritonavir QD with maraviroc or Truvada in treatment-naïve patients, 24 weeks. In kind it is in vivo, human. To be noted: number per arm (60 maraviroc, 61 Truvada). An excerpt:
To ascertain whether a once daily, nucleoside-sparing regimen using a CCR5 antagonist could be safely and efficaciously administered to HIV-positive patients infected with CCR5-tropic HIV, a randomized, controlled study is being conducted.

Turning to “N-{(1S)-3-[3-(3-isopropyl-5-methyl-4H-1,2,4-triazol-4-yl)-exo-8-azabicyclo[3.2.1]oct-8-yl]-1-phenylpropyl}-4, 4-difluorocyclohexanecarboxamide [maraviroc]”, the discontinuations is listed as 4.
